Reference: PMC6843921 (Biomolecules, 2019)

Tested on: O=C(O)CN(CCN(CC(=O)O)CC(=O)O)CC(=O)O
Assay: purified protein, by the assay type
Settings: other: dUTP hydrolysis, 300 µM EDTA, no Mg^2+, 20 °C, pH 7.5

mtDUT (Mycobacterium tuberculosis H37Rv)
Km: 10.04 ± 0.50 µM | kcat: 0.71 s⁻¹
